Experimental data: PubChem BioAssay AID624099 (ICCB-Longwood, 2012)

Purpose: 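Host factors E2 relies on to silence an HPV18 LCR reporter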 (primary screen)
System: human C33A cervical carcinoma cells (HPV-negative) stably expressing BPV1 E2 and an HPV18 LCR luciferase reporter
Reagents: siRNA pool against human genes, 40 nM
Time to read-out: 72 h
Detection: 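Per-well luciferase luminescence, z-scored on each plate against the plate mean and SD with control wells left out, then averaged across three replicate plates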
Direction: mean z-score and z-score: higher = stronger reporter signal, weaker E2 silencing
Active means: 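Mean z ≥ 2 together with z ≥ 2 in two or more of the three replicates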
Shown is one part, drawn at random, of about 21,000 reagents tested. Of all reagents, 497 (2.4%) were called active. 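Higher z means weaker E2 silencing; only reporter increases were scored, and knock-downs that hurt cell survival may mask genuine repressor factors.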 Reagents against one gene are numbered here.

The first 3 entries, to show the layout:
Gene,reagent,mean z-score,"z-score, replicate A","z-score, replicate B","z-score, replicate C",activity call
NECAP1,1,0.34,0.43,0.26,0.33,inactive
ZNF627,1,-0.32,0.07,-0.58,-0.46,inactive
EVC,1,-0.61,-0.77,-0.69,-0.37,inactive

The list itself, repeating the preview:
Gene,reagent,mean z-score,"z-score, replicate A","z-score, replicate B","z-score, replicate C",activity call
NECAP1,1,0.34,0.43,0.26,0.33,inactive
ZNF627,1,-0.32,0.07,-0.58,-0.46,inactive
EVC,1,-0.61,-0.77,-0.69,-0.37,inactive
H3C2,1,-0.93,-0.97,-0.91,-0.91,inactive
SLFN12,1,0.3,0.48,0.38,0.05,inactive
HLA-L,1,-1.08,-1.04,-1.14,-1.05,inactive
PEPD,1,-1.09,-1.03,-0.96,-1.27,inactive
ZPBP2,1,-1.58,-1.93,-1.55,-1.26,inactive
TMPRSS3,1,-0.06,0.11,-0.2,-0.08,inactive
WNT1,1,-1.34,-1.37,-1.24,-1.42,inactive
COX10,1,0.09,-0.11,0.22,0.14,inactive
NPTN,1,0.35,0.42,0.36,0.27,inactive
RER1,1,0.77,0.45,1.09,0.78,inactive
PHEX,1,-0.2,-0.35,-0.24,0,inactive
ZNF366,1,1.11,1.35,0.97,1.02,inactive
OR2H2,1,0.08,0.08,0,0.17,inactive
LOC388259 (retired record),1,0.28,0.52,0.28,0.04,inactive
P2RY2,1,-0.05,-0.06,-0.07,-0.03,inactive
NTMT1,1,0.8,0.86,0.86,0.69,inactive
SLC25A27,1,-1.44,-1.38,-1.5,-1.46,inactive
ZNF202,1,0.18,0.11,-0.02,0.47,inactive
SLC25A28,1,1.08,0.92,1.39,0.94,inactive
NIPBL,1,0.7,0.79,0.61,0.69,inactive
ZNF815P,1,0.4,0.25,0.67,0.27,inactive
ZNF815P,2,-0.05,0.1,-0.05,-0.22,inactive
ZNF815P,3,-0.18,-0.3,-0.18,-0.08,inactive
TAFA5,1,0.12,0.25,-0.05,0.16,inactive
SORCS3,1,0.4,0.39,0.24,0.57,inactive
CSNK2A2,1,-1.72,-1.54,-1.76,-1.84,inactive
TFF3,1,1.52,1.44,1.38,1.74,inactive
SAFB2,1,-0.29,-0.63,-0.15,-0.09,inactive
C1QA,1,0.17,0.17,0.14,0.21,inactive
FOXD4,1,0.38,0.48,0.43,0.23,inactive
SMOX,1,1.39,1.13,1.54,1.52,inactive
LOC400877 (retired record),1,0.44,0.42,0.31,0.58,inactive
TBC1D22A,1,1.62,1.56,1.95,1.35,inactive
SIRT4,1,-0.65,-1.28,-0.5,-0.15,inactive
FEZ2,1,-0.43,-0.62,-0.33,-0.35,inactive
GJA9,1,-0.16,-0.69,0.02,0.18,inactive
